Results of unrelated studies side by side (data: NIAID ChemDB).

Common to all: tests in culture; organism: Mycobacterium avium intracellulare; measure: MIC

Neighbouring rows are from separate reports.

structure | strain | value
CC[C@H]1OC(=O)[C@H](C)[C@@H](OC(=O)Cc2ccc[nH]2)[C@H](C)[C@@H](O[C@@H]2O[C@H](C)C[C@H](N(C)C)[C@H]2O)C(C)(O)C[C@@H](C)/C(=N\OCCCOc2ccccc2)[C@H](C)[C@@H](O)[C@]1(C)O | 20066 (clarithromycin-susceptible) | 1.56 µg/mL
NNC(=O)c1ccncc1 | N-809 (HIV-) | 2 µg/mL
CO[C@H]1/C=C/O[C@@]2(C)Oc3c(C)c(O)c4c(O)c(c5c(c4c3C2=O)NC2(CCN(CC(C)C)CC2)N=5)=NC(=O)/C(C)=C\C=C\[C@H](C)[C@H](O)[C@@H](C)[C@@H](O)[C@@H](C)[C@H](OC(C)=O)[C@@H]1C | CIPT 140310019 | 0.05 µg/mL
CC[C@H]1OC(=O)[C@H](C)[C@@H](O[C@H]2C[C@@](C)(OC)[C@@H](OC(C)=O)[C@H](C)O2)[C@H](C)[C@@H](O[C@@H]2O[C@H](C)C[C@H](N(C)C)[C@H]2OC(=O)NNCCOc2ccccc2)C(C)(O)C[C@@H](C)/C(=N\OCCCC2CCCCC2)[C@H](C)[C@@H](O)[C@]1(C)O | 20066 (clarithromycin-susceptible) | 0.78 µg/mL
CN[C@@H]1[C@H](O[C@H]2[C@H](O[C@H]3[C@H](O)[C@@H](O)[C@H](N=C(N)N)[C@@H](O)[C@@H]3N=C(N)N)O[C@@H](C)[C@]2(O)C=O)O[C@@H](CO)[C@H](O)[C@H]1O | N-481 (HIV-) | 4 µg/mL
CC[C@H]1OC(=O)[C@H](C)[C@@H](OC2C[C@@](C)(OC)[C@@H](OC(=O)CCc3ccccc3)[C@H](C)O2)[C@H](C)[C@@H](O[C@@H]2O[C@H](C)C[C@H](N(C)C)[C@H]2O)C(C)(O)C[C@@H](C)/C(=N\OCCCOc2ccccc2)[C@H](C)[C@@H](O)[C@]1(C)O | 20066 (clarithromycin-susceptible) | 0.78 µg/mL
CO[C@H]1/C=C/O[C@@]2(C)Oc3c(C)c(O)c4c(O)c(c5c(c4c3C2=O)NC2(CCN(CC(C)C)CC2)N=5)=NC(=O)/C(C)=C\C=C\[C@H](C)[C@H](O)[C@@H](C)[C@@H](O)[C@@H](C)[C@H](OC(C)=O)[C@@H]1C | N-481 (HIV-) | 0.1 µg/mL
CO[C@H]1/C=C/O[C@@]2(C)Oc3c(C)c(O)c4c(O)c(c5c(c4c3C2=O)NC2(CCN(CC(C)C)CC2)N=5)=NC(=O)/C(C)=C\C=C\[C@H](C)[C@H](O)[C@@H](C)[C@@H](O)[C@@H](C)[C@H](OC(C)=O)[C@@H]1C | SHE | 0.25 µg/mL
NC[C@H]1O[C@H](O[C@H]2[C@H](O)[C@@H](O[C@H]3O[C@H](CO)[C@@H](O)[C@H](N)[C@H]3O)[C@H](N)C[C@@H]2N)[C@H](O)[C@@H](O)[C@@H]1O | CIPT 140310031 | 5 µg/mL
CC[C@H]1OC(=O)[C@H](C)[C@@H](OC2C[C@@](C)(OC)[C@@H](OC(=O)CCCCc3ccccc3)[C@H](C)O2)[C@H](C)[C@@H](O[C@@H]2O[C@H](C)C[C@H](N(C)C)[C@H]2O)C(C)(O)C[C@@H](C)/C(=N\OCCCOc2ccccc2)[C@H](C)[C@@H](O)[C@]1(C)O | 20066 (clarithromycin-susceptible) | 0.78 µg/mL
CC[C@H]1OC(=O)[C@H](C)[C@@H](O[C@H]2C[C@@](C)(OC)[C@@H](O)[C@H](C)O2)[C@H](C)[C@@H](O[C@@H]2O[C@H](C)C[C@H](N(C)C)[C@H]2O)[C@](C)(OC)C[C@@H](C)C(=O)[C@H](C)[C@@H](O)[C@]1(C)O | N-499 (HIV-) | 0.25 µg/mL
CN[C@@H]1[C@H](O[C@H]2[C@H](O[C@H]3[C@H](O)[C@@H](O)[C@H](N=C(N)N)[C@@H](O)[C@@H]3N=C(N)N)O[C@@H](C)[C@]2(O)C=O)O[C@@H](CO)[C@H](O)[C@H]1O | CIPT 140310023 | >50 µg/mL
CC(C)N=c1cc2n(-c3ccc(Cl)cc3)c3ccccc3nc-2cc1Nc1ccc(Cl)cc1 | P39 | 5 µg/mL
CC1(C)S[C@@H]2[C@H](NC(=O)[C@H](C(=O)[O-])c3ccsc3)C(=O)N2[C@H]1C(=O)[O-].[Na+].[Na+] | CIPT 140310019 | >50 µg/mL
CC[C@H]1OC(=O)[C@H](C)[C@@H](OC(=O)Cc2cccnc2)[C@H](C)[C@@H](O[C@@H]2O[C@H](C)C[C@H](N(C)C)[C@H]2O)C(C)(O)C[C@@H](C)/C(=N\OCCCOc2ccccc2)[C@H](C)[C@@H](O)[C@]1(C)O | 20066 (clarithromycin-susceptible) | 3.13 µg/mL

For reference, 2 entries again:

CO[C@H]1/C=C/O[C@@]2(C)Oc3c(C)c(O)c4c(O)c(c5c(c4c3C2=O)NC2(CCN(CC(C)C)CC2)N=5)=NC(=O)/C(C)=C\C=C\[C@H](C)[C@H](O)[C@@H](C)[C@@H](O)[C@@H](C)[C@H](OC(C)=O)[C@@H]1C ; strain: N-481 (HIV-) ; value: 0.1 µg/mL
CC[C@H]1OC(=O)[C@H](C)[C@@H](O[C@H]2C[C@@](C)(OC)[C@@H](O)[C@H](C)O2)[C@H](C)[C@@H](O[C@@H]2O[C@H](C)C[C@H](N(C)C)[C@H]2O)[C@](C)(OC)C[C@@H](C)C(=O)[C@H](C)[C@@H](O)[C@]1(C)O ; strain: N-499 (HIV-) ; value: 0.25 µg/mL